Results as given in patent US12364719B2, “Bacillus subtilis strains improving animal performance parameters” (priority 2017, dated 2025).

System: Clostridium perfringens strain 56
Type: in vivo, Male Ross 308 broilers
Conditions: Day 25; 0-6 score

CC1(C)S[C@@H]2[C@H](NC(=O)[C@H](N)c3ccc(O)cc3)C(=O)N2[C@H]1C(=O)O [Amoxicillin]
Mean score (NE): 1.56
